Assay results as given in the supplement of paper PMC3578754.
Fold change is the IC50 on the isolate divided by the IC50 on a reference virus; 1 = unchanged, higher = more resistant. Changes are given against the subtype B consensus. No active / inactive call. The values were gathered from many studies (numbered anew) with different assays, which the source does not name. Most viruses are clinical isolates; some are laboratory strains or clones with known resistance changes. Isolates with mixed residues are left out; stretches that were not sequenced show no change. Round top values that many isolates share are read here as limits; other very high values and 0.1 may be limits too. The protease changes I3V and N37S, insertions and deletions cannot be read from the source.

How the values were obtained:
Test in all cases: fold change of IC50 against reference virus; higher = more resistant; Cell-culture drug susceptibility tests of virus bearing the protease of each isolate, gathered from many studies.
indinavir = compound: CC(C)(C)NC(=O)[C@@H]1CN(Cc2cccnc2)CCN1C[C@@H](O)C[C@@H](Cc1ccccc1)C(=O)N[C@H]1c2ccccc2C[C@H]1O [indinavir]
nelfinavir = compound: Cc1c(O)cccc1C(=O)N[C@@H](CSc1ccccc1)[C@H](O)CN1C[C@H]2CCCC[C@H]2C[C@H]1C(=O)NC(C)(C)C [nelfinavir]
ritonavir = compound: CC(C)c1nc(CN(C)C(=O)N[C@H](C(=O)N[C@@H](Cc2ccccc2)C[C@H](O)[C@H](Cc2ccccc2)NC(=O)OCc2cncs2)C(C)C)cs1 [ritonavir]
saquinavir = compound: CC(C)(C)NC(=O)[C@@H]1C[C@@H]2CCCC[C@@H]2CN1C[C@@H](O)[C@H](Cc1ccccc1)NC(=O)[C@H](CC(N)=O)NC(=O)c1ccc2ccccc2n1 [saquinavir]

| Test System | fold change of IC50 against reference virus (indinavir) | fold change of IC50 against reference virus (nelfinavir) | fold change of IC50 against reference virus (ritonavir) | fold change of IC50 against reference virus (saquinavir) |
| --- | --- | --- | --- | --- |
| HIV-1 isolate 12 (protease changes: K14R L63P, study 54) | 0.8 | 0.7 | 1.1 | 0.7 |
| HIV-1 isolate 14 (protease changes: D30N M46I I64V A71V, study 89) | 1 | 10 | 1 | 1 |
| HIV-1 isolate 24 (protease changes: T12S I15V L19I M36I R41K L63V H69K L89M I93L, study 139) | 1 | 1 | 1 | 1 |
| HIV-1 isolate 54 (protease changes: L10F D30N L33F I54L L63P A71V V77I N88D L90M, study 66) | 1.1 | 109 | 4.7 | 6.1 |
| HIV-1 isolate 55 (protease changes: T12A R41K L63P I84V, study 54) | 1.4 | 1.3 | 3.6 | 1.2 |
| HIV-1 isolate 79 (protease changes: L10I K20R E35D M36I I54V I62V L63S I64M A71V I84V L89I L90M Q92K, study 15) | 12 | 102 | 105 | 186 |
| HIV-1 isolate 83 (protease changes: I13V K14R K20I M36I R41K I64L H69K L89M I93M N98I, study 114) | 0.4 | 0.5 | 0.6 | 0.6 |
| HIV-1 isolate 118 (protease changes: D30N M36I L63P A71T N88D L90M, study 66) | 2.6 | 124 | 3.6 | 4.4 |
| HIV-1 isolate 125 (protease changes: D30N L63P V77I N88D L90M, study 66) | 2.3 | 67 | 3.1 | 3.9 |
| HIV-1 isolate 135 (protease changes: M36I R57K D60E Q61E I62V L63P A71T I93L, study 54) | 0.9 | 1.4 | 0.9 | 0.5 |
| HIV-1 isolate 146 (protease changes: L63P I64L V77I, study 54) | 1.1 | 1.9 | 1.9 |  |
| HIV-1 isolate 174 (protease changes: I13V D30N E35D M36L I62V L63Q I64V T74S N88D, study 127) | 1 | 47 | 1.4 | 1.5 |
| HIV-1 isolate 187 (protease changes: L10I L63P A71T V77I I85V L90M, study 54) | 1.2 | 2.5 | 3 | 1.3 |
| HIV-1 isolate 192 (protease changes: I84V, study 61) | 10.6 | 4.3 | 16 | 3 |
| HIV-1 isolate 234 (protease changes: G16E E35D I62V L63A, study 54) | 0.7 | 0.6 | 0.8 | 0.9 |
| HIV-1 isolate 235 (protease changes: I13V E35D L63P, study 54) | 1.1 | 2.3 | 1.4 | 0.6 |
| HIV-1 isolate 259 (protease changes: D30N L63P V77I N88D L90M, study 66) | 3.2 | 74 | 4 | 7.1 |
| HIV-1 isolate 264 (protease changes: D30N E35D M36I L63P, study 89) | 1 | 8 | 1 | 2 |
| HIV-1 isolate 269 (protease changes: T12A L63P I72V V77I I93L, study 15) | 0.7 | 1 | 0.6 | 0.5 |
| HIV-1 isolate 282 (protease changes: D30N L63P V77I N88D L90M, study 66) | 1.3 | 32.8 | 2.1 | 3.7 |
| HIV-1 isolate 286 (protease changes: L10V M46I I62V L63P I64V L76V V77I I93L, study 119) | 12.5 | 3 | 1.9 | 0.6 |
| HIV-1 isolate 298 (protease changes: L63P, study 119) | 1.1 | 1.6 | 1.3 |  |

| Test System | fold change of IC50 against reference virus (indinavir) | fold change of IC50 against reference virus (nelfinavir) | fold change of IC50 against reference virus (ritonavir) | fold change of IC50 against reference virus (saquinavir) |
| --- | --- | --- | --- | --- |
| HIV-1 isolate 414 (protease changes: L10I E35D N37D M46I I62V L63P A71V I72E L76V L90M I93L, study 119) | 17.2 | 7.2 | 9.2 |  |
| HIV-1 isolate 1133 (protease changes: L10I Q18E K20R L33I E35D M36I I54V L63P V82F L89M L90M I93L, study 130) | 30 |  | 8 | 1 |
| HIV-1 isolate 1144 (protease changes: L10I M36I L63H L90M, study 82) | 0.5 |  | 1.4 | 1.5 |
| HIV-1 isolate 1157 (protease changes: L10I I15V K20I M36I Q58E I62V L63P G73S L90M, study 112) | 8.7 |  | 14.7 | 16.9 |
| HIV-1 isolate 1166 (protease changes: V32F V82S, study 38) | 4 |  | 3 | 1 |
| HIV-1 isolate 1176 (protease changes: I13V V32I M46I I47V L63P I64V L90M Q92K I93L, study 130) | 8 |  | 8 | 1 |
| HIV-1 isolate 1195 (protease changes: I13V D60E Q61E L63P V77I L90M, study 54) | 0.9 | 2.6 | 2.3 |  |
| HIV-1 isolate 1206 (protease changes: L10I K14R E35D M36V N37D I54V L63P I64V A71T V82F L90M I93L, study 130) | 30 |  | 10 | 4 |
| HIV-1 isolate 1214 (protease changes: L10I K20M E35D M36I R41K I54V L63P A71T V82A, study 130) | 8 |  | 8 | 2 |
| HIV-1 isolate 1254 (protease changes: L33I E35D M36I N37H R41K I54V L63P A71V I84V N88D L90M, study 120) | 21.9 | 76.7 | 113 |  |
| HIV-1 isolate 1346 (protease changes: L10I I15V L24I I54V L63P A71V V82A, study 130) | 30 |  | 8 | 2 |
| HIV-1 isolate 1351 (protease changes: L10R M46I L63P I84V, study 91) | 2 |  | 1.8 | 4 |
| HIV-1 isolate 1385 (protease changes: L10I M46I L63P I66V V77I I84V N88T I93L, study 130) | 30 |  | 8 | 8 |
| HIV-1 isolate 1404 (protease changes: L10R M46I, study 91) | 1 |  | 1 | 1 |
| HIV-1 isolate 1445 (protease changes: I15V V32I E35D M36I L63P A71V V82A, study 130) | 4 |  | 8 | 1 |
| HIV-1 isolate 1458 (protease changes: V82T, study 91) | 1 |  | 1.8 | 1 |
| HIV-1 isolate 1501 (protease changes: I13V K20M M36V N37A M46I I62V L63P N88S I93L, study 120) | 6.1 | 31.4 | 1.7 |  |
| HIV-1 isolate 1533 (protease changes: L10R T12A M46I R57K L63P I64V V82T I84V, study 130) | 4 |  | 4 | 1 |
| HIV-1 isolate 1555 (protease changes: I13V L63A V82I, study 57) | 2 |  | 1 | 2 |
| HIV-1 isolate 1564 (protease changes: L10R, study 91) | 0.5 |  | 1 | 2 |
| HIV-1 isolate 1579 (protease changes: L10I T12S I13V I64V V82F, study 130) | 4 |  | 4 | 1 |
| HIV-1 isolate 1639 (protease changes: V32I E35D N37D M46I I47V L63P G73S V77I L90M I93L, study 130) | 4 |  | 4 | 4 |
